This assay concerns the target 鼠疫菌LcrV重组蛋白 (鼠疫耶尔森氏菌 (Yersinia pestis)).

B1: 重链抗体LcrVX19-R1-Fc (Fc fusion)
heavy: QLQLVESGGGSVQAGGSLRLSCQATGYIIEVGFMGWFRQTPGKEREGVAAISAASGATYYIDSVKGRFTISRDKAKNTMYLQMDSPRAEDTAMYYCAAEPTPLPDRNWWFLPRAYNVWGQGTLVTVSSAS[human IgG1 Fc with changes not spelt out]
Regarding B1, the Kd (commonly a measure of binding affinity in units of concentration) came to 561 pM.

B2: 重链抗体LcrVX19-R3-Fc (Fc fusion)
heavy: EVQLVESGGGSVQAGGSLRLSCQATGYIIEVGFMGWFRQTPGKEREGVAAISAASGATYYIDSVKGRFTISRDNAKNTMYLQMDSLRAEDTAMYYCAAEPTPLPDRNWWFLPRAYNVWGQGTLVTVSSAS[human IgG1 Fc with changes not spelt out]
In the case of B2, the Kd was 848 pM.

B3: 重链抗体LcrVX19-Fc (Fc fusion)
heavy: QLQLVESGGGSVQAGGSLRLSCQATGYIIEVGFMGWFRQTPGKEREGVAAISAASGATYYIDSVKGRFTISRDKAKNTMYLQMDSPKPEDTAMYYCAAEPTPLPDRNWWFLPRAYNVWGQGTQVTVSSAS[human IgG1 Fc with changes not spelt out]
Turning to B3, the EC50 (usually the midpoint of the concentration-response curve) is 10.9 pM and the Kd was found to be 612 pM.

B4: 重链抗体LcrVX19-R2-Fc (Fc fusion)
heavy: EVQLVESGGGSVQAGGSLRLSCQATGYIIEVGFMGWFRQTPGKEREGVAAISAASGATYYIDSVKGRFTISRDKAKNTMYLQMDSPRAEDTAMYYCAAEPTPLPDRNWWFLPRAYNVWGQGTLVTVSSAS[human IgG1 Fc with changes not spelt out]
With B4, the equilibrium dissociation constant (Kd) stood at 661 pM.

Values taken from patent publication CN117756932A (INST MILITARY MEDICINE ACADEMY MILITARY SCIENCES PLA, dated 2024).
